The target in the assay is T1, Thymidine phosphorylase (Escherichia coli O157:H7, UniProt Q8XB35).
T1 sequence (Q8XB35 whole entry): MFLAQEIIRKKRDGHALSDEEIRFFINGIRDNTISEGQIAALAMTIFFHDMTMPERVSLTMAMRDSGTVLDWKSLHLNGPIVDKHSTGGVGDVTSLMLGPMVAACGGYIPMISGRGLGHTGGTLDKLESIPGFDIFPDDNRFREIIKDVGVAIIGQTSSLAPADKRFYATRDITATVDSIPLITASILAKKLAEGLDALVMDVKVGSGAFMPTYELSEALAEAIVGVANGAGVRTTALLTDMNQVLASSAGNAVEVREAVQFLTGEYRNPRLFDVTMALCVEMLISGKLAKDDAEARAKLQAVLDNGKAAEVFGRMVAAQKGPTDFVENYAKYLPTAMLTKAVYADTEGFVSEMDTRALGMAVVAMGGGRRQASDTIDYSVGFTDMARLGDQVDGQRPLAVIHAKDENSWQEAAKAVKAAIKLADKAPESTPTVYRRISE
The assay can be described thus: Thymidine Phosphorylase Inhibition Assay. The note with it: pH 7.4. The protocol: Briefly, a total reaction mixture of 200 µl contained 145 µl of potassium phosphate buffer (pH 7.4), 30 µl of enzyme at concentration 0.05 and 0.002 U, respectively, were incubated with 5 µl of test materials for 10 min at 25 °C in microplate reader. After incubation, pre read at 290 nm was taken to deduce the absorbance of substrate molecules. Substrate (20 µl, 1.5 mM) was dissolved in potassium phosphate buffer and was immediately added to plate and continuously read after 10, 20, and 30 min in micro-plate reader. All assays were performed in triplicate

As to `O=c1[nH]c(=O)c2cc[nH]c2[nH]1` [1,7-Dihydro-pyrrolo[2,3-d]pyrimidine-2,4-dione], the IC50 (commonly the concentration needed to halve the response being measured) is 38.7 µM. This counts as double-digit micromolar.
